Measured values from several laboratories, pooled; numbers as filed in NIAID ChemDB.

All rows: host cell toxicity; cell line: MCF-7; measure: CC50

CCn is the concentration with n% toxicity to the cells. Conditions beyond the fields shown may differ between rows. An empty or dashed field is not shown.

| smiles | method | value |
|---|---|---|
| C#CCCC[C@@H]1OC(=O)CNC(=O)[C@H]([C@@H](C)CC)NC(=O)[C@@H]2CCCN2C(=O)[C@H](C(C)C)OC(=O)[C@H](Cc2ccccc2)N(C)C(=O)[C@H](C(C)C)NC(=O)C1(C)C | MTT | >100 µM |
| C/C=C/c1ccc2c(c1)[C@H](C)[C@@H](c1ccc(O)cc1)O2 | sulforhodamine / absorbance | 37 µM |
| N#CC(O)c1ccccc1 | MTT | 2010 µg/mL |
| C/C(=C\C=C\[C@@H](C)C1CC[C@@]2(C)[C@@H]3CC[C@H]4C(C)(C)C(=O)CC[C@]4(C)[C@@]3(O)CC[C@]12C)C(=O)O |  | >40 µM |
| O=c1c2cc(O)c(O)cc2oc2cc(O)cc(O)c12 | sulforhodamine / absorbance | >50 µM |
| CC(=O)O[C@@H](/C=C(\C)C(=O)O)C[C@@H](C)[C@H]1CC[C@@]2(C)C3CC[C@H]4C(C)(C)C(=O)CC[C@]4(C)C3=CC[C@]12C |  | >40 µM |
| CC(C)=CC[C@H]1C[C@]2(C[C@H]3CCC(C)(C)C=C3C)C(=O)C3=C(OC(C)(C)CC3)[C@@](C(=O)c3ccccc3)(C2=O)C1(C)C | sulforhodamine / absorbance | >50 µM |
| Cc1cc(NS(=O)(=O)c2ccc(N3C(=O)CSC3c3ccc(Cl)cc3)cc2)no1 | MTT | >100 µg/mL |
| C/C(=C\CC[C@@H](C)C1CC[C@@]2(C)[C@@H]3CC[C@H]4C(C)(C)C(=O)CC[C@]4(C)[C@@]3(O)CC[C@]12C)C(=O)O |  | >40 µM |
| CC[C@@]1(O)C(=O)OCc2c1cc1n(c2=O)Cc2cc3ccccc3nc2-1 |  | 0.08 µM |
| CC(C)=CC[C@H]1C[C@@]2(C[C@H]3CCC(C)(C)C=C3C)C(=O)[C@](C(=O)c3ccccc3)(C(=O)C3=C2OC(C)(C)C=C3)C1(C)C | sulforhodamine / absorbance | >50 µM |
| C#CCCC[C@@H]1OC(=O)CNC(=O)[C@H](C(C)C)NC(=O)[C@@H]2CCCN2C(=O)[C@H]([C@@H](C)CC)OC(=O)[C@H](Cc2ccccc2)N(C)C(=O)[C@H](C(C)C)NC(=O)C1(C)C | MTT | 83 µM |
| CC(C)=CCC[C@@H](C)[C@@H]1CC[C@]2(C)C3=C(CC[C@@]12C)[C@@]1(C)CC[C@H](O)C(C)(C)[C@@H]1CC3 | sulforhodamine / absorbance | >50 µM |
| Cc1cc(NS(=O)(=O)c2ccc(N3C(=O)CSC3c3ccc(C(F)(F)F)cc3)cc2)no1 | MTT | >100 µg/mL |
| O=c1c2cc(O)ccc2oc2cc(O)cc(O)c12 | sulforhodamine / absorbance | >50 µM |
| CC(C)(O)c1ccc2c(c1)CC[C@H]1[C@](C)(C(=O)O)CCC[C@]21C | absorbance | 35.14 µg/mL |

Repeating the first 2 entries:

smiles,method,value
C#CCCC[C@@H]1OC(=O)CNC(=O)[C@H]([C@@H](C)CC)NC(=O)[C@@H]2CCCN2C(=O)[C@H](C(C)C)OC(=O)[C@H](Cc2ccccc2)N(C)C(=O)[C@H](C(C)C)NC(=O)C1(C)C,MTT,>100 µM
C/C=C/c1ccc2c(c1)[C@H](C)[C@@H](c1ccc(O)cc1)O2,sulforhodamine / absorbance,37 µM